A mixed list of measured activities; the numbers were collected in NIAID ChemDB.

All rows: whole-cell or culture tests; agent: Mycobacterium tuberculosis

MIC bound: limit read from a one-dose screen. Rows are shuffled and stem from different studies. ECn: concentration that inhibits the pathogen or its effect by n%. Inhibition is in % at the dose shown (toxicity tests: loss of growth or viability). An empty or dashed field is not shown. Two numbers with a dash give a range or band. MIC50, MIC90 and the like: level of inhibition, or share of isolates inhibited.

SMILES,changes,conditions,tested at,cells,method,strain or isolate,read-out,value
O=C1c2cc([N+](=O)[O-])ccc2-n2c1nc1ccccc1c2=O,,,,,,H37Rv,MIC,0.015 µg/mL
CSC(=S)NN=C1CCCCC1,,,,,,H37Rv,MIC,8 µg/mL
CC(C)OC(=S)SCN1C(=O)c2ccccc2S1(=O)=O,,,6.25 µg/mL,,,H37Rv,inhibition,100%
Cc1cc(-c2cc3c(cc2F)c(=O)c(C(=O)O)cn3C2CC2)cc(C)n1,,,,,,1685-6,MIC,0.5 µg/mL
O=C1C=C(Br)c2c(-c3ccccc3)oc3cccc1c23,,,12.5 µg/mL,,BACTEC,H37Rv,inhibition,86%
O=C1c2ccccc2S(=O)(=O)N1CSC(=S)N1CCCC1,,,6.25 µg/mL,,,H37Rv,inhibition,99%
Cc1ccc2nc3c(Cl)c(C)c(=O)cc-3sc2c1,,,,,BACTEC,H37Rv,MIC bound,>12.5 µg/mL
CC1CCCN(C(=S)SCN2C(=O)c3ccccc3S2(=O)=O)C1,,,6.25 µg/mL,,,H37Rv,inhibition,98%
NC(=O)c1cnccn1,,7 d,800 µg/mL,,,H37Rv,inhibition,96.6%
O=C(c1ccncc1)N1N=C(c2cccs2)CC1(O)C(F)(F)F,,,,,,RGH102,MIC,>293 µM
NNC(=O)c1ccncc1,,,,,resazurin,H37Rv,MIC,0.66 µM
CN(C)NC(=O)c1ccc(NC(=O)c2ccc(C(=O)Nc3ccc(C(=O)NN(C)C)cc3)cc2)cc1,,,,,BACTEC,H37Rv,MIC bound,>12.5 µg/mL
CCNC(=O)COc1cc2c(O)c3c(O)c(C)c4c(c13)C(=O)[C@@](C)(O/C=C/[C@H](OC)[C@@H](C)[C@@H](OC(C)=O)[C@H](C)[C@H](O)[C@H](C)[C@@H](O)[C@@H](C)/C=C/C=C(/C)C(=O)N2)O4,,,,,,H37Rv,MIC,0.15 µg/mL
CCS(=O)(=O)O.Nc1ccc(CCC(=O)Nc2ccc(S(=O)(=O)F)cc2)c(Cl)c1,,,12.5 µg/mL,,BACTEC,H37Rv,inhibition,34%
CCOC(=O)c1ccc2c(c1)C(=O)c1nc3c(OC)cccc3c(=O)n1-2,,,,,,H37Rv,MBC,32 µg/mL
CN=c1ccc2[nH+]c3ccc(N)cc3sc-2c1.[Cl-],,,12.5 µg/mL,,BACTEC,H37Rv,inhibition,47%
CO[C@H]1/C=C/O[C@@]2(C)Oc3c(C)c(O)c4c(O)c(cc(OCC(=O)N(C)CCC#N)c4c3C2=O)NC(=O)/C(C)=C\C=C\[C@H](C)[C@H](O)[C@@H](C)[C@@H](O)[C@@H](C)[C@H](OC(C)=O)[C@@H]1C,,,,,,H37Rv,MIC,0.09 µg/mL
CCOc1ccc2cc(-n3nncc3COc3nc(-c4ccncc4)sc3C(=O)O)c(=O)oc2c1,,,,,resazurin,H37Rv,MIC,25.43 µM
O=C1c2cc(Br)ccc2-n2c1nc1ccncc1c2=O,,,,,,H37Rv,MIC,<0.06 µg/mL
CC(C)(C)OC(=O)NC(CSCc1ccc(C(=O)c2ccccc2)cc1)C(=O)O,,,,,resazurin,H37Rv,MIC bound,>6.25 µg/mL
CCC1CN(c2c(F)cc3c(=O)c(C(=O)O)cn([C@@H]4C[C@@H]4F)c3c2OC)CCN1,,,,,,50 (RFP-resistant),MIC,0.25 µg/mL
NCCCNC(=O)c1ccc(Nc2ccn(CCCCN3CCC(N)CC3)c(=O)n2)nc1,,,,,turbidity,H37Rv,EC50,<0.5 µM
CC(C)=CCOc1c2ccoc2cc2oc(=O)ccc12.NNC(=O)c1ccncc1,Isoniazid rifampicin ethambutol-resistant,,,,agar,H37Rv clinical isolate CRY8,MIC100,1.56 µg/mL
Cc1c(N=CN(C)C)c(=O)n(-c2ccccc2)n1C,,,12.8 µg/mL,,BACTEC,H37Rv,inhibition,8%
O=C1c2cc(OC(F)(F)F)ccc2-n2c1nc1ccncc1c2=O,,,,,,H37Rv,MBC,1 µg/mL
COc1ccc(OC)c(NC(=O)C(=O)Nn2c(=S)[nH]c3ccccc3c2=O)c1,,,12.5 µg/mL,,BACTEC,H37Rv,inhibition,-6%
CCOc1ccc2cc(-n3nncc3COc3nc(-c4ccccn4)sc3C(=O)OC)c(=O)oc2c1,,,,,resazurin,H37Rv,MIC,12.72 µM
CC1=C(C(=O)Nc2ccc([N+](=O)[O-])cc2)C(c2ccc(Cl)cc2)C(C(=O)Nc2ccc([N+](=O)[O-])cc2)=C(C)N1,,,,,,H37Rv,EC50,<2.5 µg/mL
O=c1c2cc3c(=O)n4c(cc(-c5ccccc5)c5cc(Cl)ccc54)nc3cc2nc2cc(-c3ccccc3)c3cc(Cl)ccc3n12,,,6.25 µg/mL,,resazurin,H37Rv,inhibition,19%
C=C1C(=O)[C@]23[C@H](OC(C)=O)[C@H]1CC[C@H]2[C@@]1(C)[C@H](C[C@H]3OC(C)=O)C(C)(C)CC[C@H]1OC(C)=O,,,,,resazurin / absorbance,H37Ra,MIC,<1.56 µg/mL
O=C1c2cc(I)ccc2-n2c1nc1c(Br)cc(Br)c(Cl)c1c2=O,,,,,,H37Rv,MIC,0.25 µg/mL
C=C1C[C@@]23CC[C@@H]4[C@@](C)(CO)CCC[C@@]4(C)[C@@H]2[C@@H](OC(C)=O)C[C@@H]1C3,,,,,resazurin / absorbance,H37Ra,MIC,25–50 µg/mL
CC1COc2c(N3CCN(C)CC3)c(F)cc3c(=O)c(C(=O)O)cn1c23,,,,,,79 strains (drug-susceptible),MIC90,0.35 µg/mL
O=C(O)CNC1=C(Cl)C(=O)c2ccccc2C1=O,,,12.5 µg/mL,,BACTEC,H37Rv,inhibition,32%
COc1ccc(C2C(C(=O)Nc3ccc(Cl)cc3)=C(C)NC(C)=C2C(=O)Nc2ccc(Cl)cc2)c(O)c1,,,,,,H37Rv,EC50,<2.5 µg/mL
CCN(CC)c1ccc(/C=N/NC(=O)C(=O)N/N=C/c2ccc(N(CC)CC)cc2)cc1,,,12.5 µg/mL,,BACTEC,H37Rv,inhibition,18%
C[C@@H]1CN(c2c(F)c(N)c3c(=O)c(C(=O)O)cn(C4CC4)c3c2F)C[C@H](C)N1,,,,,,18 strains,MIC50,0.25 µg/mL
CO[C@H]1/C=C/O[C@@]2(C)Oc3c(C)c(O)c4c(O)c(c5c(c4c3C2=O)NC2(CCN(CC(C)C)CC2)N=5)=NC(=O)/C(C)=C\C=C\[C@H](C)[C@H](O)[C@@H](C)[C@@H](O)[C@@H](C)[C@H](OC(C)=O)[C@@H]1C,,,,,,H37RV (RIF-S),MIC,0.06 µg/mL
S=C(Nc1ccc(N=Nc2ccccc2)cc1)SCc1ccc(Cl)cc1,,,,,BACTEC,H37Rv,MIC bound,≤128 µg/mL
NC1CCN(CCCCn2ccc(Nc3ccc(COCCNCC4CC4)cn3)nc2=O)CC1,,,,,turbidity,H37Rv,EC50,≥1 µM
CCCCCCCC(=O)N1[C@H]2[C@@H]1CN1C3=C(C(=O)C(N)=C(C)C3=O)[C@@H](COC(N)=O)[C@@]21OC,,,12.5 µg/mL,,BACTEC,H37Rv,inhibition,100%
CO[C@H]1/C=C/O[C@@]2(C)Oc3c(C)c(O)c4c(O)c(cc(OCC(=O)N5CCOCC5)c4c3C2=O)NC(=O)/C(C)=C\C=C\[C@H](C)[C@H](O)[C@@H](C)[C@@H](O)[C@@H](C)[C@H](OC(C)=O)[C@@H]1C,,,,,,H37Rv,MIC,0.1 µg/mL
CCC1CN2CCc3cc(OC)c(OC)cc3C2CC1CC1c2cc(OC)c(OC)cc2CCN1C(=O)C1CCCN1,,,,,BACTEC,H37Rv,MIC,≥12.5 µg/mL
CCOc1ccc2cc(-n3nncc3COc3nc(-c4ccncc4)sc3C(=O)OC)c(=O)oc2c1,,,,,resazurin,H37Rv,MIC,24.72 µM
Cc1cccc(C)c1NC(=O)C(=O)Nn1c(NN)nc2ccccc2c1=O,,,12.5 µg/mL,,BACTEC,H37Rv,inhibition,8%
Nc1ccc2cc(-n3nncc3COc3nc(-c4cccnc4)sc3C(=O)O)c(=O)oc2c1,,,,,resazurin,H37Rv,MIC,27.03 µM
NC1CCN(CCCCn2ccc(Nc3ccc(COC[C@@H]4CCCN4)cn3)nc2=O)CC1,,,,,turbidity,H37Rv,EC50,0.5–1 µM
Nc1ccc2cc(-n3nncc3COc3nc(-c4cccnc4)sc3C=O)c(=O)oc2c1,,,,,resazurin,H37Rv,MIC,13.99 µM
O=C(O)c1cn(C2CC2F)c2c(Cl)c(N3CC4CCCNC4C3)c(F)cc2c1=O,,,,,,H37Rv (RFP-susceptible),MIC,0.025 µg/mL
CO[C@H]1/C=C/O[C@@]2(C)Oc3c(C)c(O)c4c(O)c(c(/C=N/N5CCN(C6CCCC6)CC5)c(O)c4c3C2=O)NC(=O)/C(C)=C\C=C\[C@H](C)[C@H](O)[C@@H](C)[C@@H](O)[C@@H](C)[C@H](OC(C)=O)[C@@H]1C,,,,,,1033,MIC,0.16 µg/mL
CCn1cc(C(=O)O)c(=O)c2cc(F)c(N3CCN(C)CC3)cc21,,,,,,CIPT 140010072,MIC,5 µg/mL
CC1=C(C(=O)Nc2ccccc2)C(c2cccc([N+](=O)[O-])c2)C(C(=O)Nc2ccccc2)=C(C)N1,,,,,,H37Rv,EC50,<2.5 µg/mL
CCN(CC)C(=S)SCN1C(=O)c2ccccc2S1(=O)=O,,,,,,H37Rv,MIC,1.56 µg/mL
CCn1cc(C(=O)O)c(=O)c2cc(F)c(N3CCNCC3)nc21,,,,,,CIPT 140010072,MIC,10 µg/mL
CCCCCCCCc1ccc2c(c1)C(=O)c1nc3ccncc3c(=O)n1-2,,,,,,H37Rv,MIC,≤0.015 µg/mL
Cc1ccc(C2=NN(C(=O)c3ccncc3)C(O)(C(F)(F)F)C2)cc1,,,,,,H37Rv,MIC,2.23 µM
CCCCOC(=S)SCN1C(=O)c2ccccc2S1(=O)=O,,,,,,H37Rv,MIC,6.25 µg/mL
CO[C@H]1/C=C/O[C@@]2(C)Oc3c(C)c(O)c4c(O)c(cc(OCC(=O)Nc5ccccc5)c4c3C2=O)NC(=O)/C(C)=C\C=C\[C@H](C)[C@H](O)[C@@H](C)[C@@H](O)[C@@H](C)[C@H](OC(C)=O)[C@@H]1C,,,,,,H37Rv,MIC,0.01 µg/mL
O=C(c1ccncc1)N1N=C(c2ccco2)CC1(O)C(Cl)(Cl)Cl,,,,,,RGH104,MIC,>268 µM
CCOC(=O)C1=C(C(=O)c2ccccc2)C(c2ccc(Cl)cc2Cl)C(C(=O)c2ccccc2)=C(C(=O)OCC)N1,,,12.5 µg/mL,,BACTEC,H37Rv,inhibition,12%
CC1=C(C(=O)Nc2cccc([N+](=O)[O-])c2)C(c2ccccc2O)C(C(=O)Nc2cccc([N+](=O)[O-])c2)=C(C)N1,,,,,,H37Rv,EC50,<2.5 µg/mL
NC[C@@H]1O[C@H](O[C@H]2[C@@H](O)[C@H](O[C@@H]3[C@@H](O)[C@H](N)C[C@H](N)[C@H]3O[C@H]3O[C@H](CO)[C@@H](O)C[C@H]3N)O[C@@H]2CO)[C@H](N)[C@@H](O)[C@@H]1O[C@H]1O[C@H](CO)[C@@H](O)[C@H](O)[C@@H]1O,,,,,,Aoyama B (kanamycin-resistant),EC50,≥50 µg/mL
NC1CCN(CCCCn2ccc(Nc3ccc(CNC(=O)[C@@H](N)CO)cn3)nc2=O)CC1,,,,,turbidity,H37Rv,EC50,0.5–1 µM
CNC(=O)c1ccc[n+](C2OC(COC(C)=O)C(OC(C)=O)C2OC(C)=O)c1.[Br-],,,,,BACTEC,H37Rv,MIC bound,>12.5 µg/mL
O=C(O)c1sc(-c2ccncc2)nc1OCc1cnnn1-c1cc2ccc(O)cc2oc1=O,,,,,resazurin,H37Rv,MIC,26.97 µM
NC(=S)NN=C1CCCCCCC1,,,,VERO,BACTEC,H37Rv,MIC,6.25 µg/mL
Nc1ccc2cc(-n3nncc3COc3nc(-c4ccccn4)sc3C=O)c(=O)oc2c1,,,,,resazurin,H37Rv,MIC,7 µM
COc1cc(C)c2sc3ccccc3c(=O)c2c1NCCCN(C)C,,,,,BACTEC,H37Rv,MIC bound,≤12.5 µg/mL
C=C1C(=O)[C@@]23CC[C@@H]4[C@@](C)(COC(C)=O)CCC[C@@]4(C)[C@@H]2[C@@H](O)C[C@@H]1C3,,,,,resazurin / absorbance,H37Rv,MIC,>50 µg/mL
CN[C@@H]1[C@H](O[C@H]2[C@H](O[C@H]3[C@H](O)[C@@H](O)[C@H](N=C(N)N)[C@@H](O)[C@@H]3N=C(N)N)O[C@@H](C)[C@]2(O)C=O)O[C@@H](CO)[C@H](O)[C@H]1O,,,,,,K137,MIC,≥512 µg/mL
NC(=O)c1cnccn1,,,,,,T2603 niacin-negative,MIC,16 µg/mL
C=C1C(=O)[C@@]23[C@@H]4C[C@H]5C(=CCC5(C)C)[C@@](C)(O4)[C@@H]2CC[C@@H]1[C@H]3O,,,,,resazurin / absorbance,H37Ra,MIC,25–50 µg/mL
O=C1c2cc(Cl)ccc2-n2c1nc1ccncc1c2=O,,,,,,H37Rv,MIC,0.03 µg/mL
Cc1ccc(C2=NN(C(=O)c3ccncc3)C(O)(C(Cl)(Cl)Cl)C2)cc1,,,,,,RGH104,MIC,252 µM
Cc1c(N2CC3CCCNC3C2)c(F)cc2c(=O)c(C(=O)O)cn([C@@H]3C[C@@H]3F)c12,,,,,,51 (RFP-resistant),MIC,0.05 µg/mL